Compound potency records, mixed from different reports. Data source: NIAID ChemDB in PubChem.

All rows: cytotoxicity tests; cell line: MDBK; endpoint: CC50

CCn: concentration that lowers growth or viability of the cells by n%. Lines come from different laboratories, so protocols vary.

CC1(C)OCC(CCCCN2C[C@H](O)[C@@H](O)[C@H](O)[C@H]2CO)O1 ; value: >1000 µM
CC12COS(=O)(=O)CC1=C(c1ccc(Cl)cc1)C(=O)O2 ; method: MTT ; value: >20 µM
OC[C@H]1O[C@@H](n2cnc3c(NC4CCCCCC4)ncnc32)[C@H](O)[C@@H]1O ; value: >400 µM
CCCCCCCCCN1C[C@H](O)[C@@H](O)[C@H](O)[C@H]1CO ; method: XTT ; value: 120 µM
COC(=O)CC/C(C)=C/Cc1c(O)c2c(c(C)c1OC)COC2=O ; value: >100 µM
OC[C@H]1NC[C@H](O)[C@@H](O)[C@@H]1O ; value: >5000 µM
COc1c(C)c2c(c(O)c1C/C=C(\C)CO)C(=O)OC2 ; value: 89 µM
OC[C@@H]1[C@@H](O)[C@H](O)[C@@H](O)CN1CCCCCCCCCCN1C[C@H](O)[C@@H](O)[C@H](O)[C@H]1CO ; value: 1000 µM
Nc1cc(Cl)nc2c1ncn2[C@H]1C[C@H](O)[C@@H](CO)O1 ; value: 105 µM
NC(=O)C1=CSN([C@@H]2O[C@H](COP(=O)([O-])CP(=O)([O-])OCC3OC(n4cnc5c(N)ncnc54)C(O)C3O)[C@@H](O)[C@H]2O)N1 ; value: >100 µM
CC(C)OC(=O)[C@H](C)N[P@](=O)(OC[C@H]1O[C@@](C#N)(c2ccc3c(N)ncnn23)[C@](C)(O)[C@@H]1OC(=O)C(C)C)Oc1ccccc1 ; method: ATP ; value: >30 µM
COC(=O)N[C@H](C(=O)N1CCC[C@H]1c1nc2ccc(-c3csc4c(-c5ccc(-c6cnc([C@@H]7CCCN7C(=O)[C@H](NC(=O)OC)c7ccccc7)[nH]6)cc5)csc34)cc2[nH]1)C(C)C ; method: resazurin ; value: >50 µM
OC[C@H]1O[C@@H](n2cnc3c(NC4CC4)nc(Cl)nc32)C[C@@H]1O ; value: <50 µM
CCCOCCCCCCN1C[C@H](O)[C@@H](O)[C@H](O)[C@H]1CO ; value: >2000 µM
Cc1ccc(C2=C3CS(=O)(=O)OCC3(C)OC2=O)cc1 ; method: MTT ; value: >20 µM
CCCCCCCCCN1C[C@H](O)[C@@H](O)[C@H](O)[C@H]1CO ; value: 175 µM
O[C@H]1[C@H](O)[C@@H](O)CN2CC[C@H](O)[C@H]12 ; method: XTT ; value: >1000 µM
OC[C@@H]1[C@@H](O)[C@H](O)[C@@H](O)CN1CCCCc1ccccc1 ; value: 1000 µM
COc1c(C)c2c(c(O)c1C/C=C(\C)COP(=O)(O)CP(=O)(O)OC[C@H]1O[C@@H](n3cnc4c(N)ncnc43)[C@H](O)[C@@H]1O)C(=O)OC2 ; value: 100 µM
CC(C)(C)CCCCCCCN1C[C@H](O)[C@@H](O)[C@H](O)[C@H]1CO ; value: 500 µM
CC12COS(=O)(=O)CC1=C(c1ccc(Br)cc1)C(=O)O2 ; method: MTT ; value: >20 µM
OC[C@@H]1CC[C@H](n2cnc3c(NC4CC4)ncnc32)O1 ; value: >400 µM
NC(=O)c1cccc([C@@H]2O[C@H](CO)[C@@H](O)[C@H]2O)c1 ; value: 6 µM